## Potato spindle tuber viroid, loop 6: variant abundance in plants

The pool varies loop 6 of the PSTVd intermediate strain in the pattern UNNNCGNNNG; wild type is UGACCGCGAG (upper and lower strand joined, each 5' to 3', the first 5 letters being the upper strand, closing pairs included).

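Three N. benthamiana plants were inoculated with the whole mutant pool. Progeny were sequenced from the inoculated region (day 5), the margin of the inoculated leaf (day 10) and systemic leaves (day 12).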

Numbers give reads per thousand; 0 = not seen among the reads, higher = more abundant. Each value is the mean of three plants. "Pool" is the share in the plasmid pool used as inoculum, on the same scale. The inoculated region was read from the minus strand, the other sites from the plus strand. IR is the inoculated region, LM the leaf margin, Sys the systemic leaves. Wild type was 20.7 per thousand in the pool and the most common sequence in every sample (inoculated region 195, 198, 203; leaf margin 629, 591, 734; systemic leaves 942, 870, 868).

sequence,pool,IR,LM,Sys
UAUACGCGAU,0.0131,0.0849,0.0431,0
UUCACGGGAG,0.327,0.643,0.0484,0
UCACCGGACG,0.170,0.0773,0.0155,0
UGUGCGACAG,0.222,0.0957,0.0169,0
UAUUCGCCGG,0.235,0.0893,0.0169,0
UCAGCGAUUG,0.340,0.0664,0,0
UGGCCGUCGG,0.301,0.161,0.0169,0
UGAACGAUCG,0.209,0.137,0.00920,0
UCGGCGGAUG,0.248,0.102,0,0
UCUUCGUAUG,0.379,0.102,0.116,0
UUGGCGCGAG,0.536,0.316,0.0169,0.105
UUAACGAUCG,0.209,0.642,0.0654,0.0203
UAUUCGCUGG,0.261,0.0643,0.00773,0
UUGCCGGAGA,0.0131,0,0,0
UGUACGACCG,0.144,0.113,0,0
UCGACGAGAG,0.170,0.0833,0.00773,0.0195
UAAGCAAAGG,0.0131,0,0,0
UGGACGCGAU,0.0131,0.632,0.128,0
UAACCGGAGU,0.0131,0,0,0
UUCGCGUUUG,0.353,0.0837,0,0
UAUACGUCAG,0.288,0.120,0.0169,0
UAAACGUGAG,0.248,0.607,0.126,0
UAUUCGUCUG,0.366,0.102,0,0
UGGGCGGUAG,0.209,0.0775,0.0169,0
UGUCCGGGUG,0.170,0.126,0,0
GGGCCGCGCG,0.0131,0,0,0
UGCGCGUCUG,0.235,0.0588,0.00773,0
UUCACGGUGG,0.327,0.0831,0,0
UAGGCGCUAG,0.131,0.0478,0,0
UAUUCGGGGG,0.0654,0.0896,0,0
UGUCCGAAGG,0.157,0.0779,0.00920,0
UGGACGGUAG,0.170,0.101,0.0261,0.0255
UCGUCGGGUG,0.170,0.0652,0.00773,0
UGCUCGUUGG,0.261,0.0959,0.00773,0
UCAGCGACGG,0.327,0.108,0,0
UGGUCGAUAG,0.209,0.120,0.0541,0
UCGACGAAGG,0.105,0.0779,0.00920,0
UCGUCGAGUG,0.222,0.101,0,0
UUUACGUAAG,0.131,0.114,0.00773,0.0263
UUAUCGUUAG,0.510,0.0831,0.00841,0
UACUCGUAGG,0.353,0.0712,0.00773,0
UCGACGCGGG,0.144,0.0775,0.00920,0
UGCUCGCCUG,0.235,0.0893,0.00773,0
UAAACGCCUG,0.0915,0.102,0.00920,0
UGCACGGUCG,0.288,0.119,0,0
UGAGCGCCUG,0.288,0.113,0.00920,0
UGAGCGCAGG,0.288,0.0883,0,0
UCUCCGGGAG,0.144,0.0892,0.00920,0
UCAUCGGGUG,0.157,0.0420,0,0
UGCACGGGUG,0.235,0.113,0.00773,0
GGACCGCCCG,0.0131,0.0119,0,0.00684
UGAACGAAAG,0.144,0.680,0.0838,0
UCCGCGGCCG,0.131,0.0885,0.00773,0
UUGCCGCUCG,0.275,0.0903,0.0261,0
UUGUCGAAAG,0.209,0.0833,0.0169,0
UCAUCGGUAG,0.222,0.0940,0,0
UAGGCGACAG,0.144,0.149,0,0
UGGACGCCAG,0.497,0.172,0.0387,0
UUGCCGGAUG,0.222,0.113,0.00920,0
UGGACGGUCG,0.275,0.0661,0,0
UAAACGCUAG,0.131,0.601,0.0739,0.0339
UCCUCGAAAG,0.209,0.0710,0,0
UAUACGAUGG,0.392,0.0951,0,0
UACACGAUCG,0.248,0.106,0,0
UUCACGCAAG,0.170,0.565,0.0659,0
UGCUCGACAG,0.288,0.0591,0.0169,0
UCCGCGUAAG,0.157,0.0898,0,0
UUACCGUGCG,0.157,0.192,0,0
UAAUCGUAAG,0.196,0.0880,0.00920,0
GUUCCGCGGG,0.0131,0,0,0
UCCACGGAUG,0.235,0.107,0.0184,0
UUCUCGAGCG,0.588,0.107,0,0
UGCACGUAUG,0.261,0.113,0.0828,0
UGUCCGUGAG,0.327,0.620,0.0522,0
UUUCCGCACG,0.275,0.126,0.0155,0
UGGCCGGCGG,0.196,0.150,0,0

The first 6 entries again:

sequence	pool	IR	LM	Sys
UAUACGCGAU	0.0131	0.0849	0.0431	0
UUCACGGGAG	0.327	0.643	0.0484	0
UCACCGGACG	0.170	0.0773	0.0155	0
UGUGCGACAG	0.222	0.0957	0.0169	0
UAUUCGCCGG	0.235	0.0893	0.0169	0
UCAGCGAUUG	0.340	0.0664	0	0

With 36,220-57,551 reads a sample, very low values are single reads. The authors trace changes outside the varied positions to PCR and sequencing errors or to mutation in the plant; presence does not show that a variant is infectious alone.

Values reported by Wu et al. 2024 (doi:10.1371/journal.ppat.1012142).